Results from paper PMC5466964, “Alkyl Protocatechuate-Loaded Nanostructured Lipid Systems as a Treatment Strategy for Paracoccidioides brasiliensis and Paracoccidioides lutzii In Vitro” (Frontiers in Microbiology, 2017).

Key:
[1] = tested on: P. lutzii Pb01-strain ATCC MYA-826; experiment: MIC by microdilution (CLSI M27-A3 modified, alamar blue), Pb01; format: cell-based, Paracoccidioides lutzii; details: MRC5 IC50 / MIC Pb01
[2] = tested on: Paracoccidioides brasiliensis S1 isolate 18 (Pb18); experiment: MIC by microdilution (CLSI M27-A3 modified, alamar blue), Pb18; format: cell-based; details: MRC5 IC50 / MIC Pb18
[3] = tested on: P. brasiliensis S2 (02) (Pb02); experiment: MIC by microdilution (CLSI M27-A3 modified, alamar blue), Pb02; format: cell-based, Paracoccidioides brasiliensis; details: MRC5 IC50 / MIC Pb02

Row | SMILES | SI (IC50/MIC Pb01) [1] | SI (IC50/MIC Pb18) [2] | SI (IC50/MIC Pb02) [3]
1 | C[C@@H]1[C@H](O)[C@@H](C)/C=C/C=C/C=C/C=C/C=C/C=C/C=C/[C@H](O[C@@H]2O[C@H](C)[C@@H](O)[C@H](N)[C@@H]2O)C[C@@H]2O[C@](O)(C[C@@H](O)C[C@@H](O)[C@H](O)CC[C@@H](O)C[C@@H](O)CC(=O)O[C@H]1C)C[C@H](O)[C@H]2C(=O)O [AMB, Amphotericin B, reference compound] | 1.8 | 1.8 | 
2 | CCC(C)n1ncn(-c2ccc(N3CCN(c4ccc(OCC5COC(Cn6cncn6)(c6ccc(Cl)cc6Cl)O5)cc4)CC3)cc2)c1=O (centres unmarked) [ITC, itraconazole, reference compound] | 1.0 | 5.0 | 12.5
3 | CCCCCCCCCCOC(=O)c1ccc(O)c(O)c1 [decyl, decyl protocatechuate] | 8.4 | 16.5 | 33.3
4 | CCCCCCCCCCCCOC(=O)c1ccc(O)c(O)c1 [dodecyl, Dodecyl protocatechuate] | 37.3 | 37.3 | 74.7
5 | CCCCCCCOC(=O)c1ccc(O)c(O)c1 [heptyl, heptyl protocatechuate] | 4.5 | 2.3 | 73.3
6 | CCCCCCOC(=O)c1ccc(O)c(O)c1 [hexyl, hexyl protocatechuate] | 3.8 | 7.5 | 15.5
7 | CCCCCCCCCOC(=O)c1ccc(O)c(O)c1 [nonyl, nonyl protocatechuate] | 18.2 | 9.3 | 36.9
8 | CCCCCCCCOC(=O)c1ccc(O)c(O)c1 [octyl, octyl protocatechuate] | 34.7 | 34.7 | 17.7
